Measured values reported in patent US20240109955A1 (published 2024).

B1: MX1042 (bispecific antibody)
chain: DTVMTQSPLSLPVTPGEPASISCRSSQSLLNSNGYNYLDWYVQKPGQSPQLLIYLGSNRASGVPDRFSGSGSGTDFTLKISRVEAEDVGVYYCMQPLQTPLFTFGPGTKVEIKGGSSGEIVLTQSPGTLSLSPGETATLSCRASQSFSSDLAWYQQKPGQAPRLLIYGASSRATGIPDRFSGSGSGTDFTLTISRLEPADFAVYYCQQYGSSPPVTFGGGTKVEIKGGGGSGGSGSGGGGSASGSGEVQLVESGGGLIQPGGSLRLSCAASGVIVSYNYMNWVRQAPGKGLEWVSVIYSGGSTFYADSVRGRFTISRDNSKNTLYLQMNSLRAEDTAVYYCARDLGPAGAFDIWGLGTMVTVSSGGSSGQVTLRESGPALVKPTQTLTLTCTFSGFSLSTRGVCVSWIRQPPGKALEWLAFIDWDDDKYYNTSLKTRLTISKDTSKNQVVLTMTNVHPVDTATYYCARISSHHGSSWCTTFDYWGQGALVTVSAASGGSGDKTHTCPPCPAPELLGGPSVFLFPPKPKDTLMISRTPEVTCVVVDVSHEDPEVKFNWYVDGVEVHNAKTKPREEQYNSYVVSVLTVLHQDWLNGKEYKCKVSNKALPAPIEKTISKAKGQPREPQVYTLPPSRDELTKNQVSLTCLVKGFYPSDIAVEWESNGQPENNYKTTPPVLDSDGSFFKKLTVDKSRWQQGNVFSCSVLHEALHSHYTQKSLSLSPG
B2: MX1043 (bispecific antibody)
chain: EIVLTQSPGTLSLSPGETATLSCRASQSFSSDLAWYQQKPGQAPRLLIYGASSRATGIPDRFSGSGSGTDFTLTISRLEPADFAVYYCQQYGSSPPVTFGGGTKVEIKGGSSGQTVVTQEPSFSVSPGGTVTLTCGLSSGSVSTAYFPSWYQQTPGQAPRTLIYGTNTRSSGVPDRFSGSILGNKAALTITGAQADDESDYYCVLYMGRGIVVFGGGTKLTVLGGGGSGGSGSGGGGSASGSGQVQLVESGGGVVQPGRSLRLSCAASGFTLSSYGMHWVRQAPGKGLEWVAVISYDGSNKYYVDSVKGRFTISRDNSKNTLYLQMNSLRAEDTAVYYCRWAYWELLPDYYYGMDVWGQGTTVTVSSGGSSGEVQLVESGGGLIQPGGSLRLSCAASGVIVSYNYMNWVRQAPGKGLEWVSVIYSGGSTFYADSVRGRFTISRDNSKNTLYLQMNSLRAEDTAVYYCARDLGPAGAFDIWGLGTMVTVSSASGGSGDKTHTCPPCPAPELLGGPSVFLFPPKPKDTLMISRTPEVTCVVVDVSHEDPEVKFNWYVDGVEVHNAKTKPREEQYNSYVVSVLTVLHQDWLNGKEYKCKVSNKALPAPIEKTISKAKGQPREPQVYTLPPSRDELTKNQVSLTCLVKGFYPSDIAVEWESNGQPENNYKTTPPVLDSDGSFFKKLTVDKSRWQQGNVFSCSVLHEALHSHYTQKSLSLSPG
B3: MX1069 (other)
chain 1: QTVVTQEPSFSVSPGGTVTLTCGLSSGSVSTAYFPSWYQQTPGQAPRTLIYGTNTRSSGVPDRFSGSILGNKAALTITGAQADDESDYYCVLYMGRGIVVFGGGTKLTVLGGSSGEIVLTQSPGTLSLSPGETATLSCRASQSFSSDLAWYQQKPGQAPRLLIYGASSRATGIPDRFSGSGSGTDFTLTISRLEPADFAVYYCQQYGSSPPVTFGGGTKVEIKGGGGSGGSGSGGGGSASGSGEVQLVESGGGLIQPGGSLRLSCAASGVIVSYNYMNWVRQAPGKGLEWVSVIYSGGSTFYADSVRGRFTISRDNSKNTLYLQMNSLRAEDTAVYYCARDLGPAGAFDIWGLGTMVTVSSGGSSGQVQLVESGGGVVQPGRSLRLSCAASGFTLSSYGMHWVRQAPGKGLEWVAVISYDGSNKYYVDSVKGRFTISRDNSKNTLYLQMNSLRAEDTAVYYCRWAYWELLPDYYYGMDVWGQGTTVTVSSASGGSGDKTHTCPPCPAPELLGGPSVFLFPPKPKDTLMISRTPEVTCVVVDVSHEDPEVKFNWYVDGVEVHNAKTKPREEQYNSYVVSVLTVLHQDWLNGKEYKCKVSNKALPAPIEKTISKAKGQPREPQVYTLPPCRDELTKNQVSLWCLVKGFYPSDIAVEWESNGQPENNYKTTPPVLDSDGSFFKKLTVDKSRWQQGNVFSCSVLHEALHSHYTQKSLSLSPG
chain 2: EIVLTQSPGTLSLSPGETATLSCRASQSFSSDLAWYQQKPGQAPRLLIYGASSRATGIPDRFSGSGSGTDFTLTISRLEPADFAVYYCQQYGSSPPVTFGGGTKVEIKGGSSGDTVMTQSPLSLPVTPGEPASISCRSSQSLLNSNGYNYLDWYVQKPGQSPQLLIYLGSNRASGVPDRFSGSGSGTDFTLKISRVEAEDVGVYYCMQPLQTPLFTFGPGTKVEIKGGGGSGGSGSGGGGSASGSGQVTLRESGPALVKPTQTLTLTCTFSGFSLSTRGVCVSWIRQPPGKALEWLAFIDWDDDKYYNTSLKTRLTISKDTSKNQVVLTMTNVHPVDTATYYCARISSHHGSSWCTTFDYWGQGALVTVSAGGSSGEVQLVESGGGLIQPGGSLRLSCAASGVIVSYNYMNWVRQAPGKGLEWVSVIYSGGSTFYADSVRGRFTISRDNSKNTLYLQMNSLRAEDTAVYYCARDLGPAGAFDIWGLGTMVTVSSASGGSGDKTHTCPPCPAPELLGGPSVFLFPPKPKDTLMISRTPEVTCVVVDVSHEDPEVKFNWYVDGVEVHNAKTKPREEQYNSYVVSVLTVLHQDWLNGKEYKCKVSNKALPAPIEKTISKAKGQPREPQVCTLPPSRDELTKNQVSLSCAVKGFYPSDIAVEWESNGQPENNYKTTPPVLDSDGSFFLVSKLTVDKSRWQQGNVFSCSVLHEALHSHYTQKSLSLSPG
B4: MX1055 (other)
chain 1: EIVMTQSPAILSVSPGERATLSCRASQSVAINLAWYQQKPGQAPRLLIYAASSRATGIPGRFSGSGSETNFTLTISSLQSGDFAVYYCQQYITWPPSYTFGQGTKLEIKGGSSGDTVMTQSPLSLPVTPGEPASISCRSSQSLLNSNGYNYLDWYVQKPGQSPQLLIYLGSNRASGVPDRFSGSGSGTDFTLKISRVEAEDVGVYYCMQPLQTPLFTFGPGTKVEIKGGGGSGGSGSGGGGSASGSGQVTLRESGPALVKPTQTLTLTCTFSGFSLSTRGVCVSWIRQPPGKALEWLAFIDWDDDKYYNTSLKTRLTISKDTSKNQVVLTMTNVHPVDTATYYCARISSHHGSSWCTTFDYWGQGALVTVSAGGSSGEVQLVESGGALIQPGGSLRLSCAASGIIVSANYMSWVRQAPGKGLEWVSVIYSGGSTFYADSVKGRFTISRDNSKNTLYLEMNSLRAEDTAVYYCARDAPILGVSDWGQGTLVTVSSASGGSGDKTHTCPPCPAPELLGGPSVFLFPPKPKDTLMISRTPEVTCVVVDVSHEDPEVKFNWYVDGVEVHNAKTKPREEQYNSYVVSVLTVLHQDWLNGKEYKCKVSNKALPAPIEKTISKAKGQPREPQVYTLPPCRDELTKNQVSLWCLVKGFYPSDIAVEWESNGQPENNYKTTPPVLDSDGSFFKKLTVDKSRWQQGNVFSCSVLHEALHSHYTQKSLSLSPG
chain 2: DTVMTQSPLSLPVTPGEPASISCRSSQSLLNSNGYNYLDWYVQKPGQSPQLLIYLGSNRASGVPDRFSGSGSGTDFTLKISRVEAEDVGVYYCMQPLQTPLFTFGPGTKVEIKGGSSGQTVVTQEPSFSVSPGGTVTLTCGLSSGSVSTAYFPSWYQQTPGQAPRTLIYGTNTRSSGVPDRFSGSILGNKAALTITGAQADDESDYYCVLYMGRGIVVFGGGTKLTVLGGGGSGGSGSGGGGSASGSGQVQLVESGGGVVQPGRSLRLSCAASGFTLSSYGMHWVRQAPGKGLEWVAVISYDGSNKYYVDSVKGRFTISRDNSKNTLYLQMNSLRAEDTAVYYCRWAYWELLPDYYYGMDVWGQGTTVTVSSGGSSGQVTLRESGPALVKPTQTLTLTCTFSGFSLSTRGVCVSWIRQPPGKALEWLAFIDWDDDKYYNTSLKTRLTISKDTSKNQVVLTMTNVHPVDTATYYCARISSHHGSSWCTTFDYWGQGALVTVSAASGGSGDKTHTCPPCPAPELLGGPSVFLFPPKPKDTLMISRTPEVTCVVVDVSHEDPEVKFNWYVDGVEVHNAKTKPREEQYNSYVVSVLTVLHQDWLNGKEYKCKVSNKALPAPIEKTISKAKGQPREPQVCTLPPSRDELTKNQVSLSCAVKGFYPSDIAVEWESNGQPENNYKTTPPVLDSDGSFFLVSKLTVDKSRWQQGNVFSCSVLHEALHSHYTQKSLSLSPG
B5: MX1089 (other)
chain 1: QTVVTQEPSFSVSPGGTVTLTCGLSSGSVSTAYFPSWYQQTPGQAPRTLIYGTNTRSSGVPDRFSGSILGNKAALTITGAQADDESDYYCVLYMGRGIVVFGGGTKLTVLGGSSGEIVMTQSPAILSVSPGERATLSCRASQSVAINLAWYQQKPGQAPRLLIYAASSRATGIPGRFSGSGSETNFTLTISSLQSGDFAVYYCQQYITWPPSYTFGQGTKLEIKGGGGSGGSGSGGGGSASGSGEVQLVESGGALIQPGGSLRLSCAASGIIVSANYMSWVRQAPGKGLEWVSVIYSGGSTFYADSVKGRFTISRDNSKNTLYLEMNSLRAEDTAVYYCARDAPILGVSDWGQGTLVTVSSGGSSGQVQLVESGGGVVQPGRSLRLSCAASGFTLSSYGMHWVRQAPGKGLEWVAVISYDGSNKYYVDSVKGRFTISRDNSKNTLYLQMNSLRAEDTAVYYCRWAYWELLPDYYYGMDVWGQGTTVTVSSASGGSGDKTHTCPPCPAPELLGGPSVFLFPPKPKDTLMISRTPEVTCVVVDVSHEDPEVKFNWYVDGVEVHNAKTKPREEQYNSYVVSVLTVLHQDWLNGKEYKCKVSNKALPAPIEKTISKAKGQPREPQVYTLPPCRDELTKNQVSLWCLVKGFYPSDIAVEWESNGQPENNYKTTPPVLDSDGSFFKKLTVDKSRWQQGNVFSCSVLHEALHSHYTQKSLSLSPG
chain 2: DTVMTQSPLSLPVTPGEPASISCRSSQSLLNSNGYNYLDWYVQKPGQSPQLLIYLGSNRASGVPDRFSGSGSGTDFTLKISRVEAEDVGVYYCMQPLQTPLFTFGPGTKVEIKGGSSGEIVLTQSPGTLSLSPGERATLSCRASQSVSSSYLAWYQQKPGQAPRLLIYSASSRATGIPDRFSGSGSGTDFTLTISRLEPEDFAVYFCQQYVGLTGWTFGQGTKVEIKGGGGSGGSGSGGGGSASGSGQMQLVQSGPEVKKPGTSVKVSCKASGFTFTSSAVQWVRQRQRLEWIGWIVVGSGNTNYAQKFQERVTITRDMSTSTAYMELSSLRSEDTAVYYCAAPNCSNVVCYDGFDIWGQGTMVTVSSGGSSGQVTLRESGPALVKPTQTLTLTCTFSGFSLSTRGVCVSWIRQPPGKALEWLAFIDWDDDKYYNTSLKTRLTISKDTSKNQVVLTMTNVHPVDTATYYCARISSHHGSSWCTTFDYWGQGALVTVSAASGGSGDKTHTCPPCPAPELLGGPSVFLFPPKPKDTLMISRTPEVTCVVVDVSHEDPEVKFNWYVDGVEVHNAKTKPREEQYNSYVVSVLTVLHQDWLNGKEYKCKVSNKALPAPIEKTISKAKGQPREPQVCTLPPSRDELTKNQVSLSCAVKGFYPSDIAVEWESNGQPENNYKTTPPVLDSDGSFFLVSKLTVDKSRWQQGNVFSCSVLHEALHSHYTQKSLSLSPG
B6: E12 (antibody, V domains shown)
VH: EVQLVESGGGLIQPGGSLRLSCAASGVIVSYNYMNWVRQAPGKGLEWVSVIYSGGSTFYADSVRGRFTISRDNSKNTLYLQMNSLRAEDTAVYYCARDLGPAGAFDIWGLGTMVTVSS
VL: EIVLTQSPGTLSLSPGETATLSCRASQSFSSDLAWYQQKPGQAPRLLIYGASSRATGIPDRFSGSGSGTDFTLTISRLEPADFAVYYCQQYGSSPPVTFGGGTKVEIK

What follows are binders tested against SARS-CoV-2 spike protein, Omicron sublineage BQ.1 (SARS-CoV-2, UniProt P0DTC2 14-1273) (assay: cell-based or functional assay).
With B1 the “IC50, pseudovirus neutralization” value was 11.9 nM and the “IC80, pseudovirus neutralization” value was 27.4 nM. In the case of B2, the “IC50, pseudovirus neutralization” value is reported as 2.64 nM and the “IC80, pseudovirus neutralization” value is reported as 15.1 nM. For B3, the “IC50, pseudovirus neutralization” value was 0.83 nM and the “IC80, pseudovirus neutralization” value was 3.07 nM. For B4, the “IC50, pseudovirus neutralization” value was 16 nM and the “IC80, pseudovirus neutralization” value was 60.6 nM. With B5 the “IC50, pseudovirus neutralization” value was 2.92 nM and the “IC80, pseudovirus neutralization” value was 7.27 nM. In the case of B6, the “IC50, pseudovirus neutralization” value is reported as 11.9 nM and the “IC80, pseudovirus neutralization” value is reported as 40.9 nM.
